Results from publication PMC10186300 (Scientific Reports, 2023).

By UniProt entry, the sequences of proteins in these tests, tags left out. Residues count along the entry.
UniProt Q07157, 186-264 F207W limits assumed: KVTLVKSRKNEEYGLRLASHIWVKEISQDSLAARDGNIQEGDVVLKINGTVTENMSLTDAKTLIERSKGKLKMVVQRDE

Key:
PDZ2 domain of ZO1 [1] = target: T1, PDZ2 domain of ZO1 (Homo sapiens, UniProt Q07157, F207W); experiment: Stopped-flow FRET binding kinetics of dansylated E peptides with PDZ2; details: dansyl-E peptide 2 μM vs increasing [PDZ2] F207W, Hepes 50 mM pH 7.0, 10 °C, excitation 280 nm, 475 nm cut-off, 3–5 traces averaged
PDZ2 domain of ZO1 [2] = target: T1, PDZ2 domain of ZO1; experiment: Equilibrium binding experiments (FRET); details: dansylated E peptide 1 µM, increasing [PDZ2] F207W, 50 mM Hepes pH 7.0, 10 °C, FRET signal at 500 nm, hyperbolic fit
[3] = 0 M NaCl, slope of kobs vs [PDZ2]

Structure (SMILES) | kon (PDZ2 domain of ZO1 [1]; [3]) | Kd (PDZ2 domain of ZO1 [2]; 0.030 M NaCl) | Kd (PDZ2 domain of ZO1 [2]; 0.075 M NaCl) | Kd (PDZ2 domain of ZO1 [2]; 0.150 M NaCl) | kon (PDZ2 domain of ZO1 [1]; 0.030 M NaCl) | kon (PDZ2 domain of ZO1 [1]; 0.075 M NaCl) | kon (PDZ2 domain of ZO1 [1]; 0.150 M NaCl)
CC(C)C[C@H](NC(=O)[C@@H]1CCCN1C(=O)[C@@H]1CCCN1C(=O)[C@H](CCCCN)NC(=O)[C@H](CO)NS(=O)(=O)c1cccc2c(N(C)C)cccc12)C(=O)N1CCC[C@H]1C(=O)N1CCC[C@H]1C(=O)N[C@@H](CC(=O)O)C(=O)N[C@@H](CCC(=O)O)C(=O)N[C@@H](Cc1c[nH]c2ccccc12)C(=O)N[C@H](C(=O)O)C(C)C [MERS-CoV E peptide] | 1.07e+07 ± 300000 M⁻¹ s⁻¹ | 19 µM | 34 µM | 29 µM |  |  | 
CC(C)C[C@H](NC(=O)[C@H](CC(=O)O)NC(=O)[C@@H]1CCCN1C(=O)[C@@H](NC(=O)CNC(=O)[C@H](CCC(=O)O)NC(=O)[C@H](CO)NC(=O)[C@H](CO)NC(=O)[C@H](CC(N)=O)NS(=O)(=O)c1cccc2c(N(C)C)cccc12)C(C)C)C(=O)N[C@@H](CC(C)C)C(=O)N[C@H](C(=O)O)C(C)C [SARS-CoV E peptide] | 1.9e+06 ± 200000 M⁻¹ s⁻¹ |  |  |  | 1.4e+06 ± 200000 M⁻¹ s⁻¹ | 800000 ± 200000 M⁻¹ s⁻¹ | 600000 ± 100000 M⁻¹ s⁻¹
